Experimental data as given in publication PMC10051705, “Leishmanicidal Activity of Guanidine Derivatives against Leishmania infantum” (Tropical Medicine and Infectious Disease, 2023).

Tested on: human red blood cells
Assay: red blood cell lysis assay
Format: cell-based
Details: HC50 red blood cells / IC50 promastigotes
Protocol: The hemolytic activities of guanidine compounds were measured using human red blood cells from healthy adults (n = 3) according to methods previously described. Briefly, 80 µL of a 5% erythrocyte/phosphate-buffered saline (PBS) suspension was mixed with 20 µL of LQOFG-2, LQOFG-6, LQOFG-7, (1000 to 7.8 µM), and AmB (100 to 0.78 µM). After incubation at 37 °C for 1 h, 200 µL of PBS (1.5 mM KH2PO4, 8.1 mM Na2HPO4, 136.9 mM NaCl, and 2.6 mM KCl, pH 7.2) was added to stop the hemolysis process, and the samples were centrifuged for 10 min at 1000× g. The supernatants were collected, and the extent of hemolysis was measured spectrophotometrically at 540 nm. The hemolysis percentage was determined as [(Abssam − Abscon)/(Abstot − Abscon) × 100], where Abssam is the absorbance of the sample, Abscon is the absorbance of the blank control (without drugs), and Abstot is the absorbance of total hemolysis (replacing the sample solution with an equal volume of ultrapure water (Direct-Q UV®, Guyancourt, France)).

SMILES | SI (HC50/IC50)
C[C@@H]1[C@H](O)[C@@H](C)/C=C/C=C/C=C/C=C/C=C/C=C/C=C/[C@H](O[C@@H]2O[C@H](C)[C@@H](O)[C@H](N)[C@@H]2O)C[C@@H]2O[C@](O)(C[C@@H](O)C[C@@H](O)[C@H](O)CC[C@@H](O)C[C@@H](O)CC(=O)O[C@H]1C)C[C@H](O)[C@H]2C(=O)O [Amphotericin B, reference compound] | 4.73
CC(C)(C)c1ccc(N/C(=N\C(=O)c2ccccc2)NCc2ccccc2)cc1 [LQOFG-6, (Z)-N-((benzylamine)((4-(tert-butyl)phenyl)amino)methylene)benzamide] | >40.98
O=C(/N=C(/NCc1ccccc1)Nc1ccc(I)cc1)c1ccccc1 [LQOFG-7, (Z)-N-((benzylamine)((4-iodophenyl)amino)methylene)benzamide] | >42.37
